# Measured values as given in PMC10409496 (2023).
# B1: TMEM106B luminal domain (TMEM106B^LD), […] of human TMEM106B (domain or fragment)
# chain: not shown
# modifications: glycosylated
# Assays:
# [1] = biological target: T1, Wuhan-Hu-1 SARS-CoV-2 S1([…]), S1^E484 (SARS-CoV-2 (Wuhan-Hu-1)); test: BLI
# [2] = biological target: T1, Wuhan-Hu-1 SARS-CoV-2 S1([…]), S1^E484; test: BLI; remark: listed apart in the source
binder,measurement,setting,value
B1,Kd,[1],46 µM
same,koff,[2],1.6 s⁻¹
